Assay results published in PMC7325057.

System: CC(=O)N(O)CCCC[C@H](N)C(=O)O
Assay: purified protein
Conditions: 2 mM citrate, 2 mM ATP, 15 mM MgCl2, pH 7.5, 37 °C, apparent

Substance	Km [mM]	kcat [s⁻¹]	kcat/Km [M⁻¹ s⁻¹]
hvKP IucA (Klebsiella pneumoniae subsp. pneumoniae; F473Y)	1.58 ± 0.73	1.68	1060
hvKP IucA (Klebsiella pneumoniae subsp. pneumoniae; R299A)	3.18 ± 0.63	2.83	891
hvKP IucA (Klebsiella pneumoniae subsp. pneumoniae; Y481R)	5.77 ± 2.01	0.46	79.4
